Results of unrelated studies side by side (data: NIAID ChemDB).

All rows: growth or infection tests; organism: HIV-1; endpoint: fold resistance

An empty or dashed field is not shown. Lines come from different laboratories, so protocols vary. Fold resistance: result on the changed form divided by that on wild type.

structure	strain	cell line	method	mutations	result
CCCCCCCCCCCCCCCC(=O)Nc1ccn([C@H]2CC[C@@H](COP(=O)(O)O[C@H]3C[C@H](n4cc(C)c(=O)[nH]c4=O)O[C@@H]3CO)O2)c(=O)n1	OC-resistant RT L100I	CEM + CEM-SS	cytopathic effect / XTT	Oxathiin carboxanilide-resistant RT L100I	3.16
Cc1occc1C(=S)Nc1ccc(Cl)c(/C=N/OC(C)(C)C)c1	NL4-3	CEM + CEM-SS	cytopathic effect / XTT	RT-K103N	60
CCc1c(Cc2cc(C)cc(C)c2)n(COCC2CC=CCC2)c(=O)[nH]c1=O	NNRTI-resistant (RT Y181C) N119	MT-4	cytopathic effect / MTT	RT-Y181C	>5000
Cc1occc1C(=O)Nc1ccc(Cl)c(/C=N/N(C)C)c1	HEPT-resistant (RT Y188L)	CEM	syncytia	RT-Y188L	<8.89
Cc1cc(S(N)(=O)=O)ccc1NC(=O)COc1ccc(Cl)cc1C(=O)c1cccc(C#N)c1	HXB2	HeLa + HELA CD4+	β-galactosidase	RT-V106A	~10
O=C1Nc2ccc(Cl)c(O)c2[C@@](C#Cc2ccccc2)(C(F)(F)F)N1	-	MT-4	p24	RT-K103N	4.41
CCCc1cc(=O)oc2c3c(c4c(c12)OC(C)(C)CC4)O[C@H](C)[C@@H](C)C3=O	-	-	cytopathic effect / XTT	RT-Y188H	>68
CCN1c2ncccc2NC(=O)c2cc(CCOc3ccc(-c4ccc[n+]([O-])c4)cc3C)cnc21	-	C8166	p24	RT-K103N Y181C	>1
CCCc1c(Cc2ccccc2)n(COC/C(C)=C/c2ccccc2)c(=O)[nH]c1=O	NNRTI-resistant (RT K103N Y181C) A17	MT-4	cytopathic effect / MTT	RT-K103N Y181C	>2500
CC(C)[C@H](NC(=O)OCc1ccccn1)C(=O)N[C@@H](Cc1ccccc1)[C@@H](O)C[C@H](Cc1ccccc1)NC(=O)OCc1cccnc1	NL4-3	MT-4	p24	PR-L10R	1
CCOCn1c(Cc2ccccc2)c(C(C)C)c(=O)[nH]c1=O	NNRTI-resistant (RT Y181C) N119	MT-4	cytopathic effect / MTT	RT-Y181C	2200
Cc1cc(C)cc(S(=O)(=O)c2c(C(=O)NNCCO)[nH]c3ccc(Cl)cc23)c1	-	MT-4	cytopathic effect / MTT	RT-K103N Y181C	10000
O=C1Nc2ccc(Cl)c3c2[C@](C(F)(F)F)(C=C(c2cccnc2)O3)N1	-	MT-4	p24	RT-K103N	16.52
CCN1c2ncc(CCOc3ccc(-c4ccc[n+]([O-])c4)cc3C)cc2C(=O)N(C)c2cccnc21	-	C8166	p24	RT-K103N Y181C	1
CCc1c(Cc2cc(C)cc(C)c2)n(COC2C=CCCC2)c(=O)[nH]c1=O	NNRTI-resistant (RT K103N Y181C) A17	MT-4	cytopathic effect / MTT	RT-K103N Y181C	>2500
CCN1c2ncc(CCOc3ccc(-c4ccccc4)cc3)cc2C(=O)N(C)c2cccnc21	-	C8166	p24	RT-K103N Y181C	>5
COc1c(Cl)ccc2c1[C@@](C#Cc1cccnc1)(C(F)(F)F)NC(=O)N2	-	MT-4	p24	RT-K103N	20.7
Cc1cc(S(N)(=O)=O)ccc1NC(=O)COc1ccc(Cl)cc1C(=O)c1cc(F)cc(F)c1	HXB2	HeLa + HELA CD4+	β-galactosidase	RT-K103N L100I	~1
CCN1c2ncc(CCOc3ccc(C(=O)c4ccc(C(=O)O)cc4)cc3C)cc2C(=O)N(C)c2cccnc21	-	C8166	p24	RT-K103N Y181C	>1
Cc1cc(S(N)(=O)=O)ccc1NC(=O)COc1ccc(Cl)cc1C(=O)c1cc(F)cc(C#N)c1	HXB2	HeLa + HELA CD4+	β-galactosidase	RT-V106I	~1
CCCc1c(Cc2cc(C)cc(C)c2)n(COC2C=CCCC2)c(=O)[nH]c1=O	NNRTI-resistant (RT Y181C) N119	MT-4	cytopathic effect / MTT	RT-Y181C	>3333
Cc1cc(C#N)cc(C)c1Oc1nc(Nc2ccc(C#N)cc2)ncc1SCC(=O)NC1CCN(C(=O)OC(C)(C)C)CC1	-	MT-4	MTT	F227L V106A	43.5
Cc1cc(N2CCS(=O)CC2)ccc1NC(=O)COc1ccc(Cl)cc1C(=O)c1cccs1	Nevirapine-resistant (RT Y181C)	MT-4	cytopathic effect / propidium iodide	RT-Y181C	~1
Cc1cc(C#N)cc(C)c1Oc1nc(Nc2ccc(C#N)cc2)ncc1SCC(=O)Nc1ccc(S(C)(=O)=O)cc1	-	MT-4	MTT	F227L V106A	55.5
Cc1occc1C(=S)Nc1ccc(Cl)c(/C=N/OC(C)(C)C)c1	IIIB	CEM	syncytia	RT-K103N	8
O=C1Nc2ccc(Cl)cc2[C@@](/C=C/C2CC2)(C(F)(F)F)N1	-	MT-4	p24	RT-K103N	12.86
COc1cc2c(cc1Cc1cccc(Cl)c1F)c(=O)c(C(=O)O)cn2[C@H](CO)C(C)C	NL4-3	MT-4	luminescence	N222K	1
Cc1cc(C#N)cc(C)c1Oc1nc(Nc2ccc(C#N)cc2)ncc1SCC(=O)NCC1CCCO1	-	MT-4	MTT	K103N	0.6
CC(C)OC(=O)c1cc(NC(=S)OC(C)C)ccc1Cl	IIIB	CEM	syncytia	RT-V179D	11.4
Cc1occc1C(=S)Nc1ccc(Cl)c(C(=O)OC(C)C)c1	NL4-3	CEM + CEM-SS	cytopathic effect / XTT	RT-A98G	1
CCN1c2ncc(CCOc3ccc(C(=O)NS(=O)(=O)c4ccccc4)cc3C)cc2C(=O)N(C)c2cccnc21	-	C8166	p24	RT-K103N Y181C	>1
CC(C)O/N=C/c1cc(NC(=S)OC(C)C)ccc1Cl	CALO(RT-T139I)	CEM + CEM-SS	cytopathic effect / XTT	RT-T139I	3
CCc1c(Cc2cc(C)cc(C)c2)n(COC/C=C/c2ccccc2)c(=O)[nH]c1=O	NNRTI-resistant (RT K103N Y181C) A17	MT-4	cytopathic effect / MTT	RT-K103N Y181C	3333
Cc1cc(C#N)cc(C)c1Oc1nc(Nc2ccc(C#N)cc2)ncc1SCC(N)=O	-	MT-4	MTT	K103N	1.9
Cc1occc1C(=S)Nc1ccc(Cl)c(C(=O)OCC2CC2)c1	4xAZT(RT-D67N K70R T215Y K219Q)	CEM + CEM-SS	cytopathic effect / XTT	RT-D67N K70R T215Y K219Q	0.8
Cc1cc(C#N)cc(C)c1Oc1nc(Nc2ccc(C#N)cc2)ncc1SCC(=O)NCc1ccc(O)cc1	-	MT-4	MTT	L100I	5.1
CCN1c2ncc(CCOc3ccc(C(=O)NCC4(C(=O)O)CCCC4)cc3C)cc2C(=O)N(C)c2cccnc21	-	C8166	p24	RT-K103N Y181C	>1
Cc1cc(C)cc(S(=O)(=O)c2c(C(N)=O)[nH]c3c(Cl)cc(Cl)cc23)c1	IIIB	C8166	p24	RT-K103N Y181C	>62.5
Nc1nc2c(ncn2[C@H]2CO[C@@H](CO)O2)c(=O)[nH]1	-	MT-2	cytopathic effect / XTT	RT-K65R	2
C=CCNC(=O)CSc1cnc(Nc2ccc(C#N)cc2)nc1Oc1c(C)cc(C#N)cc1C	-	MT-4	MTT	Y188L	13.6
C=CCO/N=C/c1cc(NC(=S)c2ccoc2C)ccc1Cl	CALO(RT-T139I)	CEM + CEM-SS	cytopathic effect / XTT	RT-T139I	1.11
CC1=C(C(=O)Nc2ccc(Cl)c(C(=O)OC(C)C)c2)SCCO1	IIIB	CEM	syncytia	RT-Y188H	67
COc1ccnc2[nH]cc(C(=O)C(=O)N3CCN(C(=O)c4ccccc4)C[C@H]3C)c12	NL4-3(GP120-R350K) Recombinant	MT-2	RT activity	GP120-R350K	0.567
Cc1occc1C(=S)Nc1ccc(Cl)c(/C=N/OC(C)(C)C)c1	IIIB	CEM	syncytia	RT-V179D	3.3
CC=CCOc1cc(NC(=S)c2ccoc2C)ccc1OC	NL4-3	CEM + CEM-SS	cytopathic effect / XTT	RT-K103N	107
Cc1cc(C#N)cc(C)c1Oc1nc(Nc2ccc(C#N)cc2)ncc1SCC(=O)NCCN1CCOCC1	-	MT-4	MTT	Y181C	3.8

5 of the rows above, restated:

CC(C)O/N=C/c1cc(NC(=S)OC(C)C)ccc1Cl ; strain: CALO(RT-T139I) ; cell line: CEM + CEM-SS ; method: cytopathic effect / XTT ; mutations: RT-T139I ; result: 3
Cc1cc(S(N)(=O)=O)ccc1NC(=O)COc1ccc(Cl)cc1C(=O)c1cc(F)cc(C#N)c1 ; strain: HXB2 ; cell line: HeLa + HELA CD4+ ; method: β-galactosidase ; mutations: RT-V106I ; result: ~1
Cc1occc1C(=S)Nc1ccc(Cl)c(/C=N/OC(C)(C)C)c1 ; strain: IIIB ; cell line: CEM ; method: syncytia ; mutations: RT-K103N ; result: 8
Cc1cc(C#N)cc(C)c1Oc1nc(Nc2ccc(C#N)cc2)ncc1SCC(=O)NCCN1CCOCC1 ; cell line: MT-4 ; method: MTT ; mutations: Y181C ; result: 3.8
C=CCNC(=O)CSc1cnc(Nc2ccc(C#N)cc2)nc1Oc1c(C)cc(C#N)cc1C ; cell line: MT-4 ; method: MTT ; mutations: Y188L ; result: 13.6